PubChem BioAssay AID504761, Drosophila RNAi Screening Center, 2011
Assay: 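Insect host genes that dengue virus relies on to spread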 (primary screen). Cell system: D.Mel-2 cells from Drosophila. Knock-down reagent: long dsRNA against Drosophila genes. Conditions: infection with dengue virus type 2; dose and infection time not stated. Read-out: 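Cells stained for dengue envelope protein and imaged; percent of infected cells per well on duplicate plates, ranked by infection, with stained nuclei counted for cell number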. Scale: infection score: higher = more virus-infected cells; cell count: higher = more cells in the well. Rule for the call: 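Low infection ranks in the two replicates (chance level up to 0.065) followed by a retest with a 1.5-fold or larger significant decrease, p below 0.05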. Calls: active = confirmed: knock-down lowers infection; inactive = not picked or not confirmed.
In all, the deposit lists about 22,000 reagents; this is an unselected part of those that have a named target and a result. In the full data, 116 (0.52%) got an active call. 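Calls depend on retest data that are not deposited; infection was ranked per plate without normalising between plates; the unit of the infection score is not given.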 Raw values vary from plate to plate and are shown uncorrected. Unmarked entries are inactive. A plus sign joins genes that one reagent is predicted to hit. Not given: the amount of reagent, the time to read-out.

gene	PubChem SID	infection score, replicate 1	infection score, replicate 2	cell count, replicate 1	cell count, replicate 2
CG6000	SID104195730	3.49	8.37	6339	1410
CG31313	SID104192836	4.28	3.2	6118	5753
CG11089 + CG31381	SID104193482	5.49	4	6107	4130
CG11089 + CG31381	SID104194082	15.2	7.46	5604	6807
CG11089 + CG31381	SID104208493	17.7	5.4	6683	6476
Brr2	SID104190351	12.2	27.8	1429	1062
CG4066	SID104195333	2.04	17.6	6901	5591
CG4066	SID104208288	9.18	5.72	6516	5978
Gr28a	SID104182082	3.5	6.63	6164	6445
CG5968	SID104182708	2.09	1.16	6072	6281
CG8654	SID104187023			333	373
Sox14	SID104184448	15.3	9.35	5934	1551
Sox14	SID104205569	0.91	1.31	5916	5894
P32	SID104186780	14.1	2.17	5089	552
CG34135 + Nasp	SID104196189	0.83	0.84	6240	6523
mTerf3	SID104191551	11.7	9.94	6249	6196
CG14488	SID104186252	15.2	9.5	6605	6539
CG12935	SID104186040	10.3	4.61	6318	6573
Vha14-2	SID104191937	5.33	4.42	6487	6409
wech	SID104186398	5.01	19.6	6610	5761
CG30423	SID104183805	1.82		6193	
Msp300	SID104180648	1.21	0.64	5882	5740
Msp300	SID104180649	2.75	1.35	5961	5915
Msp300	SID104180650	5.76	0.66	5641	6206
Msp300	SID104182152	8.7	1.94	4035	6499
Msp300	SID104183161	4.88	2.62	6558	6494
Msp300	SID104183162	8.42	1.67	5901	6116
CG16782	SID104197910	1.23	9.67	6611	5355
Atg2	SID104188065		15.3	261	6056
Ack-like	SID104187292	5.03	1.38	6316	6462
CG7910	SID104196133	8.85	5.69	6066	6241
CG14106	SID104189901	0.96	2.04	6782	6558
CG12824	SID104185965	3.49	15.8	6479	4896
CG34457	SID104186716	5.31	25.8	6497	5189
CG4598	SID104182555	19.1	8.08	5314	6005

Reformatted: results already given
gene | PubChem SID | infection score, replicate 1 | infection score, replicate 2 | cell count, replicate 1 | cell count, replicate 2
Vha14-2 | SID104191937 | 5.33 | 4.42 | 6487 | 6409
wech | SID104186398 | 5.01 | 19.6 | 6610 | 5761
CG30423 | SID104183805 | 1.82 | – | 6193 | –
Msp300 | SID104180648 | 1.21 | 0.64 | 5882 | 5740
Msp300 | SID104180649 | 2.75 | 1.35 | 5961 | 5915
Msp300 | SID104180650 | 5.76 | 0.66 | 5641 | 6206
Msp300 | SID104182152 | 8.7 | 1.94 | 4035 | 6499
Msp300 | SID104183161 | 4.88 | 2.62 | 6558 | 6494
Msp300 | SID104183162 | 8.42 | 1.67 | 5901 | 6116

The list goes on:
gene	PubChem SID	infection score, replicate 1	infection score, replicate 2	cell count, replicate 1	cell count, replicate 2
CG10041	SID104193971	3.41	3.89	6919	591
CG10041	SID104208049		6.61	328	1347
CG9926	SID104196374	10.3	4.74	6603	6966
CG9926	SID104207719	19.2	11.9	5675	5837
CG15249	SID104197770	3.29	5.85	6597	6773
pea	SID104186912	38.4	31.3	3429	3886
pea	SID104208252	22.2	13.5	2977	2545
PIP5K59B	SID104184082	2.68	20.2	6237	5363
PIP5K59B	SID104184195	2.94	3.67	6945	6861
Usp39	SID104199824	7.08	4.46	5681	6440
Usp39	SID104208380	2.81	15.2	5841	3235
Sfxn1-3	SID104191975	1.93	4.76	5790	6365
CG14840	SID104194756	4.64	3.89	6276	6306
CG14840	SID104206522	11.3	8.95	6353	6327
Anp	SID104193904	8.02	14.4	6667	4842
Eip74EF	SID104190952	4.18	10.6	5617	4172
Eip74EF	SID104202889	2.14	2.1	5946	5868
CG42486 + CG14933	SID104204998	2.32	10.7	6973	3995
NimB4	SID104181676	15.7	8.53	5973	5801
NimB4	SID104203109	5.38	2.31	6336	6093
Ac76E	SID104189434	1.12	0.82	5644	5846
Ac76E	SID104189454	10.2	23.5	6144	4542
Arpc1	SID104183230	46.2	33.9	5065	5291
Arpc1	SID104208185	21.3	7.75	5897	1665
CG8366	SID104186945	17.7	6.44	6286	7055
Tsp2A	SID104198376	1.59	5.97	6874	6412
CG31784	SID104181366	9.05	5.52	6031	5893
Mur2B	SID104198337	13.2	5.86	6200	6285
Mur2B	SID104198338	8.63	8.96	6813	6438
FLASH	SID104186664	5.03	0.78	6427	6879
FLASH	SID104205291	2.23	11.5	6186	6447
path	SID104190153	3.74	3.43	6200	6502
GstE9	SID104186471	4.83	7.55	6125	4877
GstE9	SID104207748	14.3	9.53	5864	2444
Sobp	SID104187104	10.4	8.89	1704	5828
Sobp	SID104203253	4.57	3.43	6435	6263
CG9483	SID104183018	19.6	23.4	5833	4680
CG9483	SID104208473	2.02	1.94	6725	6511
CG9436	SID104184797	11.1	10.2	6740	6352
